Pooled drug test results. Numbers come from NIAID ChemDB, via PubChem.

Common to all: cytotoxicity tests; cell line: KB; endpoint: CC50

Blank or dashed fields: not listed here.

CN(C)c1nc2c(Cl)cc(Cl)cc2n1COC(CO)CO ; result: >100 µM
CCSCc1c(Cl)nc2ccc(Cl)cn12 ; result: >100 µM
Cc1cc(=O)[nH]c2c1ccc1ncc(C(=O)O)c(C)c12 ; result: 12 µg/mL
C[C@@H]1C[C@@H](O)[C@H]2C3=C(C[C@H](O)[C@@]2(O)C1)C(=O)c1c(O)cccc1C3=O ; read by: resazurin ; result: 4.9 µM
Nc1nc2cc(Cl)c(Cl)cc2n1COCCO ; result: >100 µM
Cc1ccc(/C=c2\c(=O)sc3nc4c(c(=S)n23)C2=C(CCC/C2=C\c2ccncc2)C(c2ccncc2)S4)cc1 ; read by: MTT ; result: 36.9 µM
C[C@@H]1CC[C@H]2C3=C(C[C@H](O)[C@@]2(O)C1)C(=O)c1c(O)cccc1C3=O ; read by: resazurin ; result: 9.1 µM
Nc1c2c(nc(=O)n1-c1ccccc1)SC(c1ccncc1)C1=C2/C(=C/c2ccncc2)CCC1 ; read by: MTT ; result: 13.4 µM
OCC(CO)OCn1c(=S)[nH]c2cc(Cl)c(Cl)cc21 ; result: >100 µM
CCSCc1c(Cl)nc2cc(Cl)c(Cl)cn12 ; result: >100 µM
OCC(CO)OCn1cnc2c(Cl)c(Cl)ccc21 ; result: >100 µM
OCCCOCc1c(Cl)nc2ccc(Cl)cn12 ; result: >100 µM
OCC(CO)OCn1c(SCc2ccccc2)nc2cc(Cl)c(Cl)cc21 ; result: >100 µM
Nc1nc2c(ncn2COC(CO)CO)c(=O)[nH]1 ; result: >100 µM
CCCCCCCCCCCC(=O)c1c(O)cc(O)cc1O ; read by: resazurin ; result: 13.2 µg/mL
CN(C)c1nc2cc(Cl)c(Cl)cc2n1COCCO ; result: >100 µM
C=CCOCc1c(Cl)nc2ccc(Cl)cn12 ; result: >100 µM
Nc1c(C(=O)c2ccccc2)[nH]c2c1C1=C(CCC/C1=C\c1ccncc1)C(c1ccncc1)S2 ; read by: MTT ; result: >50 µM
CNc1nc2cc(Cl)c(Cl)cc2n1COCCO ; result: >100 µM
CCOC(=O)c1[nH]c2c(c1N)C1=C(CCC/C1=C\c1ccncc1)C(c1ccncc1)S2 ; read by: MTT ; result: >50 µM
O=C(CCCCCCCCc1ccccc1)c1c(O)cccc1O ; read by: resazurin ; result: >60 µg/mL

For reference, 2 entries again:

SMILES,read by,result
Nc1nc2cc(Cl)c(Cl)cc2n1COCCO,,>100 µM
OCCCOCc1c(Cl)nc2ccc(Cl)cn12,,>100 µM

CCn: concentration that lowers growth or viability of the cells by n%. Conditions beyond the fields shown may differ between rows.